# Laboratory results from PubChem BioAssay AID1476 (National Center for Advancing Translational Sciences (NCATS), 2009).
# The chains behind the UniProt entries cited, without tags or fusion partners. Residues count along the entry.
# UniProt P25779, 123-467 limits assumed: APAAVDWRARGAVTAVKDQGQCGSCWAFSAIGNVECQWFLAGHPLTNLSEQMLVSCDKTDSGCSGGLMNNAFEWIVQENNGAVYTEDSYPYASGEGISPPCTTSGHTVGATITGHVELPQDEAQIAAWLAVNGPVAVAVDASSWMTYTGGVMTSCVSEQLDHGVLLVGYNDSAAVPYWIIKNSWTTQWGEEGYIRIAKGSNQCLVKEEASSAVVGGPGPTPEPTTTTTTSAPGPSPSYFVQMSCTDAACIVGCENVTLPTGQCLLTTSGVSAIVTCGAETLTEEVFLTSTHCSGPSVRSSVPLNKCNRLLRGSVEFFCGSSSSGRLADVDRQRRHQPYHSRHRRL
# The entries are a selection whose mix differs from that of the whole data set. Records with an inconclusive call do not appear. Some salts and complexes are drawn in separate pieces, as the source files them; their charges need not balance. Calls of active or inactive are those of the source. Calls come from the whole dose curve; as a rule, active = well fitted inhibition curve with a large enough effect; inconclusive = small, poorly fitted or top-dose-only effect, or effect the other way; inactive = flat fitted curve, though single readings scatter.
# Molecular target: Cruzipain (Trypanosoma cruzi) (UniProt P25779)
# Assay: qHTS Assay for Promiscuous and Specific Inhibitors of Cruzain (without detergent);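 note: plate controls were enzyme without inhibitor for no effect and buffer without enzyme for full effect; nearly all actives have a fitted effect of over 40% in size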
# Conditions: purified cruzain, Z-FR-AMC fluorescence, no detergent
row,SMILES,"max response, negative = inhibition"
1,Cc1ccc([N+](=O)[O-])cc1[N+](=O)[O-],inactive: -4.55%
2,O=[N+]([O-])OCC(CO[N+](=O)[O-])(CO[N+](=O)[O-])CO[N+](=O)[O-],inactive: -11.4%
3,O=P(Nc1nccs1)(c1ccccc1)c1nc2ccccc2s1 (stereo unspecified),inactive: 2.51%
4,O=[N+]([O-])c1cccc([N+](=O)[O-])c1,inactive: -2.65%
5,O=[As](O)(O)c1ccc([As](=O)(O)O)cc1,inactive: 0.995%
6,Cc1ccc(NP(C)(=O)Oc2ccccc2)c(C)c1 (stereo unspecified),inactive: 0.854%
7,COc1ccccc1OP(C)(=O)Nc1ccc(C)cc1 (stereo unspecified),inactive: 6.53%
8,[N-]=[N+]=NCC(N)=O,inactive: 10.7%
9,O=[As]c1ccc(S(=O)(=O)NCCO)cc1 (stereo unspecified),inactive: 5.71%
10,ClCCSc1nnc(-c2cccnc2)o1,inactive: 2.22%
11,CCOC(=O)c1ccc(NP(C)(=O)Oc2ccccc2)cc1 (stereo unspecified),inactive: -2.88%
12,O=[N+]([O-])c1cc([N+](=O)[O-])c(-c2ccn[nH]2)s1,inactive: -15.8%
13,COc1ccc(OP(C)(=O)Nc2cccc(F)c2)cc1 (stereo unspecified),inactive: 10.2%
14,CCN(CC)C(=S)SC(NC=O)C(Cl)(Cl)Cl (stereo unspecified),inactive: -6.41%
15,Cc1ccc2nc3c(c(C)c2c1)CC(C(Cl)Cl)S3 (stereo unspecified),inactive: -11.6%
16,CC(C)(C)c1ccc(OP(C)(=O)Nc2ccc(SC(F)(F)F)cc2)cc1 (stereo unspecified),inactive: 6.5%
17,O=[N+]([O-])[O-].[NH4+],inactive: 3.9%
18,O=C(OC1CN2CCC1CC2)C12CC3CC(CC(C3)C1)C2 (stereo unspecified),inactive: -7.12%

row,SMILES,"max response, negative = inhibition"
1,Cc1c2c(nc3ccccc13)SC(C(Cl)Cl)C2 (stereo unspecified),inactive: -9.24%
2,NC(=O)Nc1cc([As](=O)(O)O)cc(I)c1O,inactive: 7.9%
3,CCOC(=O)c1ccc(NP(C)(=O)Oc2ccc(OC)cc2)cc1 (stereo unspecified),inactive: -0.16%
4,CCOP(C)(=S)SCC(=O)NC(C)C(=O)O (stereo unspecified),inactive: -0.975%
5,CP(=O)(Nc1ccccn1)Oc1ccc(Cl)cc1 (stereo unspecified),inactive: -4.43%
6,CCC(C)N(CC(C)C)C(=S)SC(NC(C)=O)C(Cl)(Cl)Cl (stereo unspecified),inactive: 18.3%
7,[Au].[Au].c1ccc([PH+](c2ccccc2)c2ccccc2)cc1.c1ccc([PH+](c2ccccc2)c2ccccc2)cc1.n1n[nH]c(-c2nnn[nH]2)n1,inactive: -7.26%
8,Cc1cccc(C)c1OP(C)(=O)Nc1ccc(SC(F)(F)F)cc1 (stereo unspecified),inactive: 9.48%
9,COP1(=S)c2c(C)nn(CCC#N)c2N=C(c2ccc(F)cc2)N1C (stereo unspecified),inactive: -4.96%
10,Cc1cc(C)cc(OP(C)(=O)Nc2ccc(SC(F)(F)F)cc2)c1 (stereo unspecified),inactive: 27%
11,O=C(O)[C@@H](O)c1ccc([As](=O)(O)O)cc1,inactive: -0.902%
12,O=C(COc1ccccc1)OC1CN2CCC1CC2 (stereo unspecified),inactive: -8.78%
13,CP(=O)(NC(=O)Nc1ccccc1)Oc1ccccc1 (stereo unspecified),inactive: 5.28%
14,CP(=S)(Nn1cnnc1)Oc1ccccc1 (stereo unspecified),inactive: 4.53%
15,CP(=O)(Nc1ccccc1Br)Oc1ccccc1 (stereo unspecified),inactive: 3.76%
16,CN(N=O)C(=N)N[N+](=O)[O-],inactive: -1.82%
17,N1=C(c2nnc(-c3nn[nH]n3)nn2)NNN1,inactive: 0.517%
18,Cc1cc(SC(NC(=O)c2ccccc2)C(Cl)(Cl)Cl)nc(C(C)C)n1 (stereo unspecified),inactive: 0.774%
